Drawing on patent publication US20230120677, this text covers fluorescence intensity ratio between Clover and mRuby2, co-expression in E. coli for one substance.

This series has as its target Clover-SNAP-25-mRuby2 FRET sensor (UniProt P60880).

Take “IALC (inactive BoNT/A-LC, E224Q and Y366F)”: the fluorescence intensity ratio between Clover and mRuby2, co-expression in E. coli amounted to 1.9.
